# Sequence variants of PSTVd loop 15 after infection

The measurements come from Wu et al. 2024 (doi:10.1371/journal.ppat.1012142).

The pool varies loop 15 of the PSTVd intermediate strain in the pattern GGAAACCGNNNNNNC; wild type is GGAAACCGCUACUAC (upper and lower strand joined, each 5' to 3', the first 7 letters being the upper strand, closing pairs included).

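A pool of all variants was put on leaves of three Nicotiana benthamiana plants. Samples came from the inoculated region at 5 days, the leaf margin at 10 and upper systemic leaves at 12.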

Values are reads per thousand in the sample; higher means more abundant, 0 means not found.
Each value is the mean of three plants.
"Pool" is the share in the plasmid pool used as inoculum, on the same scale.
The inoculated region was read from the minus strand, the other sites from the plus strand.
IR is the inoculated region, LM the leaf margin, Sys the systemic leaves.

| # | sequence | pool | IR | LM | Sys |
|---|---|---|---|---|---|
| 1 | GGAAACCGAAACUAC | 0.208 | 0.261 | 0.133 | 0.0689 |
| 2 | GGAAACCGAACAGUC | 0.208 | 0.0920 | 0.0134 | 0 |
| 3 | GGAAACCGAAGACGC | 0.304 | 0.0852 | 0.00668 | 0 |
| 4 | GGAAACCGAAGAGGC | 0.128 | 0.0415 | 0.00668 | 0.00537 |
| 5 | GGAAACCGAAGUAAC | 0.256 | 0.152 | 0.0108 | 0.0107 |
| 6 | GGAAACCGAAGUACC | 0.240 | 0.0915 | 0.00668 | 0 |
| 7 | GGAAACCGAAUGCUC | 0.176 | 0.119 | 0.0187 | 0.00537 |
| 8 | GGAAACCGACAGAAC | 0.304 | 0.306 | 0.0980 | 0.0439 |
| 9 | GGAAACCGACCCAGC | 0.240 | 0.108 | 0.0362 | 0.00537 |
| 10 | GGAAACCGACCGCCC | 0.304 | 0.0678 | 0.00668 | 0 |
| 11 | GGAAACCGACGGACC | 0.304 | 0.135 | 0.660 | 0 |
| 12 | GGAAACCGACUCGCC | 0.352 | 0.101 | 0 | 0 |
| 13 | GGAAACCGACUGUGC | 0.144 | 0.121 | 0 | 0 |
| 14 | GGAAACCGAGAAGCC | 0.256 | 0.0769 | 0.00742 | 0 |
| 15 | GGAAACCGAGAGUAC | 0.352 | 0.310 | 0.142 | 0.0322 |
| 16 | GGAAACCGAGAUCCC | 0.176 | 0.0750 | 0.00742 | 0 |
| 17 | GGAAACCGAGUUAAC | 0.240 | 0.193 | 0.0208 | 0.0107 |
| 18 | GGAAACCGAUAUAGC | 0.256 | 0.277 | 0.103 | 0.00537 |
| 19 | GGAAACCGAUAUUAC | 0.240 | 0.250 | 0.135 | 0.0462 |
| 20 | GGAAACCGAUCGUUC | 0.288 | 0.595 | 0.145 | 0.0635 |
| 21 | GGAAACCGAUCUCAC | 0.288 | 0.100 | 0.0175 | 0 |
| 22 | GGAAACCGAUCUUGC | 0.320 | 0.140 | 0.00668 | 0.00537 |
| 23 | GGAAACCGAUGACGC | 0.144 | 0.0892 | 0.00668 | 0 |
| 24 | GGAAACCGAUGAGAC | 0.160 | 0.124 | 0.0128 | 0 |
| 25 | GGAAACCGAUGCGUC | 0.160 | 0.157 | 0.00539 | 0 |
| 26 | GGAAACCGAUUACUC | 0.176 | 0.138 | 0.0200 | 0 |
| 27 | GGAAACCGCACCCGC | 0.224 | 0.0869 | 0.0121 | 0 |
| 28 | GGAAACCGCACCUAC | 0.224 | 0.337 | 0.136 | 0.00537 |
| 29 | GGAAACCGCACGAGC | 0.320 | 0.167 | 0.00668 | 0.00537 |
| 30 | GGAAACCGCAGAUCC | 0.256 | 0.117 | 0.0128 | 0 |
| 31 | GGAAACCGCAUAAAC | 0.176 | 0.0741 | 0 | 0 |
| 32 | GGAAACCGCAUCCGC | 0.256 | 0.125 | 0.00742 | 0 |
| 33 | GGAAACCGCCAACAC | 0.192 | 0.319 | 0.113 | 0.0638 |
| 34 | GGAAACCGCCCCAAC | 0.176 | 0.109 | 0.00668 | 0.00760 |
| 35 | GGAAACCGCCCGUUC | 0.224 | 0.278 | 0.130 | 0.0404 |
| 36 | GGAAACCGCCCUAGC | 0.224 | 0.0749 | 0 | 0 |
| 37 | GGAAACCGCCGACUC | 0.160 | 0.258 | 0.109 | 0.0268 |
| 38 | GGAAACCGCCGCGCC | 0.208 | 0.105 | 0.00742 | 0 |
| 39 | GGAAACCGCCGGAGC | 0.320 | 0.0923 | 0 | 0 |
| 40 | GGAAACCGCGAAACC | 0.208 | 0.100 | 0.0187 | 0 |
| 41 | GGAAACCGCGGCCUC | 0.304 | 0.122 | 0.00539 | 0.00760 |
| 42 | GGAAACCGCUGGCUC | 0.304 | 0.0826 | 0.0134 | 0 |
| 43 | GGAAACCGCUUCCCC | 0.128 | 0.0955 | 0.00539 | 0 |
| 44 | GGAAACCGCUUGAUC | 0.256 | 0.134 | 0 | 0.00537 |
| 45 | GGAAACCGCUUUGAC | 0.208 | 0.0909 | 0.0121 | 0 |
| 46 | GGAAACCGGACUGCC | 0.208 | 0.0870 | 0.00742 | 0 |
| 47 | GGAAACCGGAGGCAC | 0.144 | 0.0958 | 0.0121 | 0.00537 |
| 48 | GGAAACCGGCAGCUC | 0.192 | 0.106 | 0.00668 | 0 |
| 49 | GGAAACCGGCGGUGC | 0.288 | 0.0603 | 0.00539 | 0 |
| 50 | GGAAACCGGCGUGUC | 0.320 | 0.0920 | 0.0175 | 0 |
| 51 | GGAAACCGGGCAAAC | 0.304 | 0.0850 | 0.00668 | 0 |
| 52 | GGAAACCGGGUACUC | 0.240 | 0.124 | 0 | 0 |
| 53 | GGAAACCGGUACGCC | 0.224 | 0.120 | 0.0108 | 0.00537 |
| 54 | GGAAACCGGUAGGGC | 0.256 | 0.127 | 0.0121 | 0.00537 |
| 55 | GGAAACCGGUCCAAC | 0.240 | 0.149 | 0.0208 | 0.0107 |
| 56 | GGAAACCGGUGGACC | 0.240 | 0.115 | 0.00668 | 0 |
| 57 | GGAAACCGGUUGAGC | 0.160 | 0.102 | 0.0134 | 0 |
| 58 | GGAAACCGGUUUGCC | 0.208 | 0.0740 | 0.0121 | 0 |
| 59 | GGAAACCGUACAAGC | 0.256 | 0.125 | 0.0121 | 0.00537 |
| 60 | GGAAACCGUAGGGUC | 0.240 | 0.0621 | 0 | 0 |
| 61 | GGAAACCGUCCGAUC | 0.0800 | 0.300 | 0.0616 | 0.00537 |
| 62 | GGAAACCGUCGACGC | 0.208 | 0.115 | 0.00668 | 0 |
| 63 | GGAAACCGUCGCAAC | 0.176 | 0.0514 | 0.0195 | 0 |
| 64 | GGAAACCGUCGGUAC | 0.192 | 0.331 | 0.151 | 0.0354 |
| 65 | GGAAACCGUCUGCUC | 0.144 | 0.0897 | 0.00668 | 0 |
| 66 | GGAAACCGUGAUGCC | 0.320 | 0.132 | 0 | 0.00537 |
| 67 | GGAAACCGUGCUGCC | 0.240 | 0.110 | 0.00668 | 0 |
| 68 | GGAAACCGUGUAAGC | 0.336 | 0.0867 | 0.00668 | 0 |
| 69 | GGAAACCGUUAGACC | 0.256 | 0.255 | 0.103 | 0.0385 |
| 70 | GGAAACCGUUCAGGC | 0.256 | 0.0642 | 0 | 0 |
| 71 | GGAAACCGUUGGACC | 0.192 | 0.0507 | 0.0134 | 0.00760 |
| 72 | GGAAACCGUUGGUGC | 0.320 | 0.376 | 0.121 | 0.0714 |
| 73 | GGAAACCGUUGUGGC | 0.192 | 0.0856 | 0 | 0 |
| 74 | GGAAACCGUUUACGC | 0.336 | 0.168 | 0.0108 | 0.00537 |

Excerpt, the final 4 entries:

{"sequence": "GGAAACCGUUGGACC", "pool": "0.192", "IR": 0.0507, "LM": 0.0134, "Sys": 0.00760}
{"sequence": "GGAAACCGUUGGUGC", "pool": "0.320", "IR": 0.376, "LM": 0.121, "Sys": 0.0714}
{"sequence": "GGAAACCGUUGUGGC", "pool": "0.192", "IR": 0.0856, "LM": 0, "Sys": 0}
{"sequence": "GGAAACCGUUUACGC", "pool": "0.336", "IR": 0.168, "LM": 0.0108, "Sys": 0.00537}

Sequences that differ at fixed positions probably stem from PCR or sequencing errors, and defective variants can be carried along by functional ones.
For reference, wild type rose from 33.9 per thousand in the pool to 202, 200, 159 (inoculated region), 724, 746, 710 (leaf margin) and 856, 883, 880 (systemic leaves).
Samples held 43,870 to 66,106 reads, so the smallest values rest on one or two reads.